Measured values from several laboratories, pooled; numbers as filed in NIAID ChemDB.

Common to all: tests in culture; agent: HIV-1; read by: syncytia; endpoint: fold resistance

Neighbouring rows are from separate reports. Fold resistance: result on the changed form divided by that on wild type. Blank or dashed fields: not listed here.

SMILES,strain or isolate,changes,cells,result
Cc1cn([C@@H]2O[C@H](CO[Si](C)(C)C(C)(C)C)C3(OS(=O)(=O)C=C3N)[C@H]2O[Si](C)(C)C(C)(C)C)c(=O)n(C)c1=O,Quin-0.1 (RT V106A P225H),RT-V106A P225H,CEM,55
CCc1cc(NCc2nc3c(Cl)ccc(Cl)c3o2)c(=O)[nH]c1C,D34,TIBO-resistant,PBL,~300
CCOCn1c(Cc2cc(C)cc(C)c2)c(CC)c(=O)[nH]c1=O,IIIB nevirapine-resistant (RT Y181C),RT-Y181C,CEM,200
CC(C)=CCN1Cc2cc(Cl)cc3[nH]c(=S)n(c23)C[C@@H]1C,IIIB,RT-E138K,CEM,4.17
C[C@H](Cn1cnc2c(N)ncnc21)OCP(=O)(O)O,Clinical isolate C20,RT-M41L D67N V118I M184V L210W T215Y,CEM,29.7
CC(C)=CCN1Cc2cccc3[nH]c(=S)n(c23)C[C@@H]1C,D34,TIBO-resistant,PBL,1250
Nc1nc2c(ncn2[C@H]2CC[C@@H](CO)O2)c(=O)[nH]1,MN-QUIN(RT-G190E),RT-G190E,CEM,0.25
Nc1nc2c(ncn2[C@H]2CC[C@@H](CO)O2)c(=O)[nH]1,IIIB TIBO R82913 STR-B02 (RT L100I E138K),RT-L100I E138K,CEM,0.7
Cc1occc1C(=S)Nc1ccc(Cl)c(/C=N/OC(C)(C)C)c1,IIIB,RT-V106A,CEM,2.6
Nc1ncnc2c1ncn2CCOCP(=O)(O)O,IIIB-BHAP)(0.1)(RT-L100I,RT-L100I,CEM,2.71
CCc1cc(NCc2nc3c(Cl)ccc(Cl)c3o2)c(=O)[nH]c1C,IIIB,RT-C181I,CEM,>750
CC(C)(C)[Si](C)(C)OC[C@H]1O[C@@H](n2ccc(=O)[nH]c2=O)[C@H](O[Si](C)(C)C(C)(C)C)C12OS(=O)(=O)C=C2N,IIIB,RT-E138K,CEM,>61.5
CN1C(=O)N(Cc2ccccc2)S(=O)(=O)c2cscc21,IIIB,RT-K103N,CEM,>141
Cc1cn([C@@H]2O[C@H](CO[Si](C)(C)C(C)(C)C)[C@@]3(OS(=O)(=O)C=C3N)[C@H]2O[Si](C)(C)C(C)(C)C)c(=O)[nH]c1=O,IIIB,RT-E138K,CEM,94
Cc1cn([C@@H]2O[C@H](CO[Si](C)(C)C(C)(C)C)C3(OS(=O)(=O)C=C3N)[C@H]2O[Si](C)(C)C(C)(C)C)c(=O)n(C)c1=O,IIIB,RT-M184V,CEM,0.792
CCN1C(=O)N(Cc2ccccc2)S(=O)(=O)c2cscc21,ADP/141,RT-D67N K70R T215F K219Q,MT-4,0.356
CCc1c(Sc2ccccc2)n(COCc2ccccc2)c(=O)[nH]c1=O,IIIB,RT-Y181C,CEM,27.3
O=c1[nH]cnc2c1ncn2[C@H]1CC[C@@H](CO)O1,IIIB,RT-E138K,CEM,2.17
CCn1c(=O)c(C)cn([C@@H]2O[C@H](CO[Si](C)(C)C(C)(C)C)C3(OS(=O)(=O)C=C3N)[C@H]2O[Si](C)(C)C(C)(C)C)c1=O,IIIB nevirapine-resistant (RT Y181C),RT-Y181C,CEM,>1670
O=c1[nH]cnc2c1ncn2[C@H]1CC[C@@H](CO)O1,IIIB-Nevirapine(1.0)(RT-Y181C),RT-Y181C,CEM,4
Cc1c(N)nc(N)nc1OCCOCP(=O)(O)O,Clinical isolate C20,RT-M41L D67N V118I M184V L210W T215Y,CEM,16.1
CC(C)Nc1cccnc1N1CCN(C(=O)c2cc3ccccc3[nH]2)CC1,TIBO-2(RT-K103N),RT-K103N,CEM,92.5
Cc1cn([C@@H]2O[C@H](CO[Si](C)(C)C(C)(C)C)C3(OS(=O)(=O)C=C3N)[C@H]2O[Si](C)(C)C(C)(C)C)c(=O)n(C)c1=O,IIIB,RT-E138K,CEM,>1500
N#CCN1C(=O)N(Cc2cccc(F)c2)S(=O)(=O)c2cscc21,,RT-Y181C,CEM,47.5
CCOCn1c(Cc2cc(C)cc(C)c2)c(CC)c(=O)[nH]c1=O,IIIB E-EBU(RT-Y181C),RT-Y181C,CEM,367
CN1C(=O)N(Cc2ccccc2)S(=O)(=O)c2cscc21,,RT-K103N,CEM,>141
Cc1cn([C@H]2C[C@H](N=[N+]=[N-])[C@@H](CO)O2)c(=O)[nH]c1=O,IIIB nevirapine-resistant (RT Y181C),RT-Y181C,CEM,1.67
Cc1c(Sc2ccccc2)n(COCCO)c(=O)[nH]c1=O,IIIB NEV(RT-V106A),RT-V106A,CEM,12
Cc1occc1C(=S)Nc1ccc(Cl)c(C(=O)OC2CCCC2)c1,IIIB,RT-M184V,CEM,0.6
CCOCn1c(Sc2ccccc2)c(CC)c(=O)[nH]c1=S,IIIB BHAP(RT-L100I),RT-L100I,CEM,17.5
Nc1cc(OCCOCP(=O)(O)O)nc(N)n1,Clinical isolate L6.5,RT-S68G K70T V75I F77L K103N F116Y Q151M K219R,CEM,1.68
CCN1C(=O)N(Cc2cccc(Cl)c2)S(=O)(=O)c2cscc21,ADP/141,RT-D67N K70R T215F K219Q,MT-4,0.24
CCc1cc(NCc2nc3c(Cl)ccc(Cl)c3o2)c(=O)[nH]c1C,IIIB-Nevirapine(0.1)(RT-Y181C),RT-Y181C,CEM,28
O=C1N(Cc2ccccc2)c2cscc2S(=O)(=O)N1Cc1ccccc1,IIIB,RT-Y188H,CEM,4.33
Nc1ncnc2c1ncn2CCOCP(=O)(O)O,IIIB TIBO R82913 STR-B22 (RT L100I Y188H),RT-L100I Y188H,CEM,1.43
Cc1cn([C@@H]2O[C@H](CO[Si](C)(C)C(C)(C)C)C3(OS(=O)(=O)C=C3N)[C@H]2O[Si](C)(C)C(C)(C)C)c(=O)n(C)c1=O,IIIB,RT-E138K,CEM,>1600
CC(C)=CCOc1cc(NC(=S)c2ccsc2C)ccc1Cl,IIIB,RT-E138K,CEM,5.56
Nc1ccn([C@H]2CC[C@@H](CO)O2)c(=O)n1,IIIB,RT-E138K,CEM,2.7
N#CCN1C(=O)N(Cc2ccccc2)S(=O)(=O)c2cscc21,IIIB,RT-K103N,CEM,>250
Cc1occc1C(=S)Nc1ccc(Cl)c(/C=N/OC(C)(C)C)c1,IIIB,RT-V179D,CEM,15.45
CCOCn1c(Cc2ccccc2)c(C(C)C)c(=O)[nH]c1=O,IIIB,RT-Y188L,CEM,5000
CCOCn1c(Cc2ccccc2)c(CC)c(=O)[nH]c1=O,IIIB BHAP(RT-L100I),RT-L100I,CEM,22.5
O=c1[nH]cnc2c1ncn2[C@H]1CC[C@@H](CO)O1,IIIB,RT-V179D,CEM,1.38
O=c1[nH]cnc2c1ncn2[C@H]1CC[C@@H](CO)O1,IIIB TIBO R82913 STR-B02 (RT L100I E138K),RT-L100I E138K,CEM,1.3
Cc1cn([C@@H]2O[C@H](CO[Si](C)(C)C(C)(C)C)C3(OS(=O)(=O)C=C3N)[C@H]2O[Si](C)(C)C(C)(C)C)c(=O)n(C)c1=O,IIIB,RT-V179D,CEM,0.88
Cc1ccnc2c1NC(=O)c1cccnc1N2C1CC1,IIIB,RT-Y181C,CEM,71.7
Nc1ncnc2c1ncn2CCOCP(=O)(O)O,IIIB,RT-E138K,CEM,1.76

The first 6 rows once more:

SMILES	strain or isolate	changes	cells	result
Cc1cn([C@@H]2O[C@H](CO[Si](C)(C)C(C)(C)C)C3(OS(=O)(=O)C=C3N)[C@H]2O[Si](C)(C)C(C)(C)C)c(=O)n(C)c1=O	Quin-0.1 (RT V106A P225H)	RT-V106A P225H	CEM	55
CCc1cc(NCc2nc3c(Cl)ccc(Cl)c3o2)c(=O)[nH]c1C	D34	TIBO-resistant	PBL	~300
CCOCn1c(Cc2cc(C)cc(C)c2)c(CC)c(=O)[nH]c1=O	IIIB nevirapine-resistant (RT Y181C)	RT-Y181C	CEM	200
CC(C)=CCN1Cc2cc(Cl)cc3[nH]c(=S)n(c23)C[C@@H]1C	IIIB	RT-E138K	CEM	4.17
C[C@H](Cn1cnc2c(N)ncnc21)OCP(=O)(O)O	Clinical isolate C20	RT-M41L D67N V118I M184V L210W T215Y	CEM	29.7
CC(C)=CCN1Cc2cccc3[nH]c(=S)n(c23)C[C@@H]1C	D34	TIBO-resistant	PBL	1250